PubChem BioAssay AID1259414 | Drosophila RNAi Screening Center, 2018
The screen tested about 24,000 reagents; this is a random part of those that have a named target and a result. Over the whole deposit, about 1,210 (5%) got an active call. 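Inactive calls also include excluded dsRNAs with several or no targets, genes unexpressed in JW18, and well A1, regardless of score.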

- Screen: 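Host factors increasing or decreasing Wolbachia levels in cultured fly cells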 (primary screen)
- Cell system: Drosophila JW18 cells infected with Wolbachia
- Reagents: long dsRNA against Drosophila genes, 0.25 µg dsRNA per well of a 384-well plate
- Time to read-out: 5 days
- Treatment: cells persistently infected with Wolbachia before knock-down; no added drug
- Measurement: 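Automated imaging of bacterial rRNA staining divided by host cell count, reported as plate-normalised robust z-score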
- Reading the numbers: Wolbachia per cell robust z: higher = more Wolbachia per host cell than the plate typical
- Hit rule: 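Active if absolute robust z reaches 1.5 in two or more of three replicates, leaving out multi- or no-target dsRNAs, genes unexpressed in JW18 and A1 wells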

With CG7920 [DRSC16346], what was measured?
Wolbachia per cell robust z, rep 1: -0.636; Wolbachia per cell robust z, rep 2: -0.0561; Wolbachia per cell robust z, rep 3: -0.526; Outcome: inactive

With CG7920 [DRSC21594], what does the deposit list?
Wolbachia per cell robust z, rep 1: -0.288; Wolbachia per cell robust z, rep 2: -1.13; Wolbachia per cell robust z, rep 3: 0.206; Outcome: inactive

For Mlp84B (Muscle LIM protein at 84B) [DRSC12596], what does the deposit list?
Wolbachia per cell robust z, rep 1: 0.203; Wolbachia per cell robust z, rep 2: 0.0975; Wolbachia per cell robust z, rep 3: -1.16; Outcome: inactive

For CG3640 [DRSC04399], what was measured?
Wolbachia per cell robust z, rep 1: -2.65; Wolbachia per cell robust z, rep 2: 0.428; Wolbachia per cell robust z, rep 3: 0.675; Outcome: inactive

Which result is listed for Sgs8 (Salivary gland secretion 8) [DRSC11282]?
Wolbachia per cell robust z, rep 1: -0.926; Wolbachia per cell robust z, rep 2: -0.451; Wolbachia per cell robust z, rep 3: -4.62; Outcome: inactive

What is on record for Cpr67Fa1 (Cuticular protein 67Fa1) [DRSC10932]?
Wolbachia per cell robust z, rep 1: -0.143; Wolbachia per cell robust z, rep 2: -0.379; Wolbachia per cell robust z, rep 3: -0.657; Outcome: inactive

For betaTub85D (beta-Tubulin at 85D) [DRSC16910], what was measured?
Wolbachia per cell robust z, rep 1: 1.39; Wolbachia per cell robust z, rep 2: 1.55; Wolbachia per cell robust z, rep 3: 1; Outcome: inactive

What did the screen give for betaTub85D (beta-Tubulin at 85D) [DRSC25043]?
Wolbachia per cell robust z, rep 1: 1.07; Wolbachia per cell robust z, rep 2: 2.24; Wolbachia per cell robust z, rep 3: 0.276; Outcome: inactive

With CG5254 [DRSC18611], what was measured?
Wolbachia per cell robust z, rep 1: -0.259; Wolbachia per cell robust z, rep 2: -0.349; Wolbachia per cell robust z, rep 3: 0.24; Outcome: inactive

How did the screen score firl (firelighter) [DRSC02428]?
Wolbachia per cell robust z, rep 1: -1.12; Wolbachia per cell robust z, rep 2: -0.101; Wolbachia per cell robust z, rep 3: 0.0285; Outcome: inactive

For CG13157 [DRSC06282], what does the deposit list?
Wolbachia per cell robust z, rep 1: 0.0121; Wolbachia per cell robust z, rep 2: -0.725; Wolbachia per cell robust z, rep 3: 0.814; Outcome: inactive

With jhamt (juvenile hormone acid methyltransferase) [DRSC01985], how do the results read?
Wolbachia per cell robust z, rep 1: -0.048; Wolbachia per cell robust z, rep 2: -0.847; Wolbachia per cell robust z, rep 3: -1.17; Outcome: inactive

With bdl (borderless) [DRSC00271], what was measured?
Wolbachia per cell robust z, rep 1: -1.02; Wolbachia per cell robust z, rep 2: -0.64; Wolbachia per cell robust z, rep 3: -0.679; Outcome: inactive

How did the screen score CG13426 [DRSC06388]?
Wolbachia per cell robust z, rep 1: -1.2; Wolbachia per cell robust z, rep 2: 0.109; Wolbachia per cell robust z, rep 3: -2.54; Outcome: inactive

What is on record for CG42659 [DRSC41417]?
Wolbachia per cell robust z, rep 1: -1.4; Wolbachia per cell robust z, rep 2: -2.16; Wolbachia per cell robust z, rep 3: -1.58; Outcome: inactive

With Xxylt (Xyloside xylosyltransferase) [DRSC04107], what does the deposit list?
Wolbachia per cell robust z, rep 1: -0.271; Wolbachia per cell robust z, rep 2: 0.973; Wolbachia per cell robust z, rep 3: 0.938; Outcome: inactive

What did the screen give for Ndf (Nucleosome-destabilizing factor) [DRSC02775]?
Wolbachia per cell robust z, rep 1: 0.637; Wolbachia per cell robust z, rep 2: -1.07; Wolbachia per cell robust z, rep 3: -0.165; Outcome: inactive

What is on record for Sfp24C1 (Seminal fluid protein 24C1) [DRSC40634]?
Wolbachia per cell robust z, rep 1: 0.228; Wolbachia per cell robust z, rep 2: 0.808; Wolbachia per cell robust z, rep 3: -0.576; Outcome: inactive

What is on record for CG4377 [DRSC04467]?
Wolbachia per cell robust z, rep 1: -0.613; Wolbachia per cell robust z, rep 2: -1.62; Wolbachia per cell robust z, rep 3: -0.263; Outcome: inactive

For CG4377 [DRSC28406], how do the results read?
Wolbachia per cell robust z, rep 1: 0.746; Wolbachia per cell robust z, rep 2: 0.0659; Wolbachia per cell robust z, rep 3: 0.572; Outcome: inactive

With spict (spichthyin) [DRSC02157], how do the results read?
Wolbachia per cell robust z, rep 1: -1.79; Wolbachia per cell robust z, rep 2: -11.2; Wolbachia per cell robust z, rep 3: -0.47; Outcome: active

How did the screen score spict (spichthyin) [DRSC28072]?
Wolbachia per cell robust z, rep 1: -0.306; Wolbachia per cell robust z, rep 2: 0.897; Wolbachia per cell robust z, rep 3: 0.0444; Outcome: inactive

For spict (spichthyin) [DRSC39020], what does the deposit list?
Wolbachia per cell robust z, rep 1: -0.0338; Wolbachia per cell robust z, rep 2: -3.23; Wolbachia per cell robust z, rep 3: -1.42; Outcome: inactive

With AMPKalpha (AMP-activated protein kinase alpha subunit) [DRSC18714], how do the results read?
Wolbachia per cell robust z, rep 1: -0.0554; Wolbachia per cell robust z, rep 2: 0.0203; Wolbachia per cell robust z, rep 3: 0.372; Outcome: inactive

For AMPKalpha (AMP-activated protein kinase alpha subunit) [DRSC28055], how do the results read?
Wolbachia per cell robust z, rep 1: -1.01; Wolbachia per cell robust z, rep 2: -1.01; Wolbachia per cell robust z, rep 3: 0.792; Outcome: inactive

Active calls, among the entries above:
spict (spichthyin) [DRSC02157]: Wolbachia per cell robust z, rep 1 = -1.79; Wolbachia per cell robust z, rep 2 = -11.2; Wolbachia per cell robust z, rep 3 = -0.47; Outcome = active
